Consider four molecules from patent US20240109955A1.

Common to all, as to test: cell-based or functional assay
Assay [1] deals with SARS-CoV-2 spike protein, Omicron sublineage BA.4/5 (SARS-CoV-2), P0DTC2.
The target of assay [2] is SARS-CoV-2 spike protein, Omicron sublineage BF.7 (SARS-CoV-2), P0DTC2.
Assay [3] deals with SARS-CoV-2 spike protein, Omicron sublineage BQ.1.1 (SARS-CoV-2), P0DTC2.

B1: MX1043 (bispecific antibody)
chain: EIVLTQSPGTLSLSPGETATLSCRASQSFSSDLAWYQQKPGQAPRLLIYGASSRATGIPDRFSGSGSGTDFTLTISRLEPADFAVYYCQQYGSSPPVTFGGGTKVEIKGGSSGQTVVTQEPSFSVSPGGTVTLTCGLSSGSVSTAYFPSWYQQTPGQAPRTLIYGTNTRSSGVPDRFSGSILGNKAALTITGAQADDESDYYCVLYMGRGIVVFGGGTKLTVLGGGGSGGSGSGGGGSASGSGQVQLVESGGGVVQPGRSLRLSCAASGFTLSSYGMHWVRQAPGKGLEWVAVISYDGSNKYYVDSVKGRFTISRDNSKNTLYLQMNSLRAEDTAVYYCRWAYWELLPDYYYGMDVWGQGTTVTVSSGGSSGEVQLVESGGGLIQPGGSLRLSCAASGVIVSYNYMNWVRQAPGKGLEWVSVIYSGGSTFYADSVRGRFTISRDNSKNTLYLQMNSLRAEDTAVYYCARDLGPAGAFDIWGLGTMVTVSSASGGSGDKTHTCPPCPAPELLGGPSVFLFPPKPKDTLMISRTPEVTCVVVDVSHEDPEVKFNWYVDGVEVHNAKTKPREEQYNSYVVSVLTVLHQDWLNGKEYKCKVSNKALPAPIEKTISKAKGQPREPQVYTLPPSRDELTKNQVSLTCLVKGFYPSDIAVEWESNGQPENNYKTTPPVLDSDGSFFKKLTVDKSRWQQGNVFSCSVLHEALHSHYTQKSLSLSPG
Consider B1, for which the IC50 (pseudovirus neutralization) was 3.74 nM in assay [1], 56.9 nM in assay [2] and 2.35 nM in assay [3]. Besides, the figures for the IC80 (pseudovirus neutralization) in assay [1], in assay [2] and in assay [3] were 10.7 nM, 134 nM and 12.3 nM, respectively.

B2: MX1069 (protein)
chain 1: QTVVTQEPSFSVSPGGTVTLTCGLSSGSVSTAYFPSWYQQTPGQAPRTLIYGTNTRSSGVPDRFSGSILGNKAALTITGAQADDESDYYCVLYMGRGIVVFGGGTKLTVLGGSSGEIVLTQSPGTLSLSPGETATLSCRASQSFSSDLAWYQQKPGQAPRLLIYGASSRATGIPDRFSGSGSGTDFTLTISRLEPADFAVYYCQQYGSSPPVTFGGGTKVEIKGGGGSGGSGSGGGGSASGSGEVQLVESGGGLIQPGGSLRLSCAASGVIVSYNYMNWVRQAPGKGLEWVSVIYSGGSTFYADSVRGRFTISRDNSKNTLYLQMNSLRAEDTAVYYCARDLGPAGAFDIWGLGTMVTVSSGGSSGQVQLVESGGGVVQPGRSLRLSCAASGFTLSSYGMHWVRQAPGKGLEWVAVISYDGSNKYYVDSVKGRFTISRDNSKNTLYLQMNSLRAEDTAVYYCRWAYWELLPDYYYGMDVWGQGTTVTVSSASGGSGDKTHTCPPCPAPELLGGPSVFLFPPKPKDTLMISRTPEVTCVVVDVSHEDPEVKFNWYVDGVEVHNAKTKPREEQYNSYVVSVLTVLHQDWLNGKEYKCKVSNKALPAPIEKTISKAKGQPREPQVYTLPPCRDELTKNQVSLWCLVKGFYPSDIAVEWESNGQPENNYKTTPPVLDSDGSFFKKLTVDKSRWQQGNVFSCSVLHEALHSHYTQKSLSLSPG
chain 2: EIVLTQSPGTLSLSPGETATLSCRASQSFSSDLAWYQQKPGQAPRLLIYGASSRATGIPDRFSGSGSGTDFTLTISRLEPADFAVYYCQQYGSSPPVTFGGGTKVEIKGGSSGDTVMTQSPLSLPVTPGEPASISCRSSQSLLNSNGYNYLDWYVQKPGQSPQLLIYLGSNRASGVPDRFSGSGSGTDFTLKISRVEAEDVGVYYCMQPLQTPLFTFGPGTKVEIKGGGGSGGSGSGGGGSASGSGQVTLRESGPALVKPTQTLTLTCTFSGFSLSTRGVCVSWIRQPPGKALEWLAFIDWDDDKYYNTSLKTRLTISKDTSKNQVVLTMTNVHPVDTATYYCARISSHHGSSWCTTFDYWGQGALVTVSAGGSSGEVQLVESGGGLIQPGGSLRLSCAASGVIVSYNYMNWVRQAPGKGLEWVSVIYSGGSTFYADSVRGRFTISRDNSKNTLYLQMNSLRAEDTAVYYCARDLGPAGAFDIWGLGTMVTVSSASGGSGDKTHTCPPCPAPELLGGPSVFLFPPKPKDTLMISRTPEVTCVVVDVSHEDPEVKFNWYVDGVEVHNAKTKPREEQYNSYVVSVLTVLHQDWLNGKEYKCKVSNKALPAPIEKTISKAKGQPREPQVCTLPPSRDELTKNQVSLSCAVKGFYPSDIAVEWESNGQPENNYKTTPPVLDSDGSFFLVSKLTVDKSRWQQGNVFSCSVLHEALHSHYTQKSLSLSPG
Consider B2, for which the IC50 (pseudovirus neutralization) in assay [1] worked out at 1.47 nM; in assay [2], 12.5 nM; in assay [3], 1.89 nM. The IC80 (pseudovirus neutralization) in assay [1] was 2.44 nM; in assay [2], 29 nM; in assay [3], 6.5 nM.

B3: MX1042 (bispecific antibody)
chain: DTVMTQSPLSLPVTPGEPASISCRSSQSLLNSNGYNYLDWYVQKPGQSPQLLIYLGSNRASGVPDRFSGSGSGTDFTLKISRVEAEDVGVYYCMQPLQTPLFTFGPGTKVEIKGGSSGEIVLTQSPGTLSLSPGETATLSCRASQSFSSDLAWYQQKPGQAPRLLIYGASSRATGIPDRFSGSGSGTDFTLTISRLEPADFAVYYCQQYGSSPPVTFGGGTKVEIKGGGGSGGSGSGGGGSASGSGEVQLVESGGGLIQPGGSLRLSCAASGVIVSYNYMNWVRQAPGKGLEWVSVIYSGGSTFYADSVRGRFTISRDNSKNTLYLQMNSLRAEDTAVYYCARDLGPAGAFDIWGLGTMVTVSSGGSSGQVTLRESGPALVKPTQTLTLTCTFSGFSLSTRGVCVSWIRQPPGKALEWLAFIDWDDDKYYNTSLKTRLTISKDTSKNQVVLTMTNVHPVDTATYYCARISSHHGSSWCTTFDYWGQGALVTVSAASGGSGDKTHTCPPCPAPELLGGPSVFLFPPKPKDTLMISRTPEVTCVVVDVSHEDPEVKFNWYVDGVEVHNAKTKPREEQYNSYVVSVLTVLHQDWLNGKEYKCKVSNKALPAPIEKTISKAKGQPREPQVYTLPPSRDELTKNQVSLTCLVKGFYPSDIAVEWESNGQPENNYKTTPPVLDSDGSFFKKLTVDKSRWQQGNVFSCSVLHEALHSHYTQKSLSLSPG
With B3, the figures for the IC50 (pseudovirus neutralization) in assay [1], in assay [2] and in assay [3] were 1.37 nM, 19.3 nM and 0.29 nM, respectively. The IC80 (pseudovirus neutralization) came to 2.75 nM in assay [1], 30.8 nM in assay [2] and 3.5 nM in assay [3].

B4: MX1055 (protein)
chain 1: EIVMTQSPAILSVSPGERATLSCRASQSVAINLAWYQQKPGQAPRLLIYAASSRATGIPGRFSGSGSETNFTLTISSLQSGDFAVYYCQQYITWPPSYTFGQGTKLEIKGGSSGDTVMTQSPLSLPVTPGEPASISCRSSQSLLNSNGYNYLDWYVQKPGQSPQLLIYLGSNRASGVPDRFSGSGSGTDFTLKISRVEAEDVGVYYCMQPLQTPLFTFGPGTKVEIKGGGGSGGSGSGGGGSASGSGQVTLRESGPALVKPTQTLTLTCTFSGFSLSTRGVCVSWIRQPPGKALEWLAFIDWDDDKYYNTSLKTRLTISKDTSKNQVVLTMTNVHPVDTATYYCARISSHHGSSWCTTFDYWGQGALVTVSAGGSSGEVQLVESGGALIQPGGSLRLSCAASGIIVSANYMSWVRQAPGKGLEWVSVIYSGGSTFYADSVKGRFTISRDNSKNTLYLEMNSLRAEDTAVYYCARDAPILGVSDWGQGTLVTVSSASGGSGDKTHTCPPCPAPELLGGPSVFLFPPKPKDTLMISRTPEVTCVVVDVSHEDPEVKFNWYVDGVEVHNAKTKPREEQYNSYVVSVLTVLHQDWLNGKEYKCKVSNKALPAPIEKTISKAKGQPREPQVYTLPPCRDELTKNQVSLWCLVKGFYPSDIAVEWESNGQPENNYKTTPPVLDSDGSFFKKLTVDKSRWQQGNVFSCSVLHEALHSHYTQKSLSLSPG
chain 2: DTVMTQSPLSLPVTPGEPASISCRSSQSLLNSNGYNYLDWYVQKPGQSPQLLIYLGSNRASGVPDRFSGSGSGTDFTLKISRVEAEDVGVYYCMQPLQTPLFTFGPGTKVEIKGGSSGQTVVTQEPSFSVSPGGTVTLTCGLSSGSVSTAYFPSWYQQTPGQAPRTLIYGTNTRSSGVPDRFSGSILGNKAALTITGAQADDESDYYCVLYMGRGIVVFGGGTKLTVLGGGGSGGSGSGGGGSASGSGQVQLVESGGGVVQPGRSLRLSCAASGFTLSSYGMHWVRQAPGKGLEWVAVISYDGSNKYYVDSVKGRFTISRDNSKNTLYLQMNSLRAEDTAVYYCRWAYWELLPDYYYGMDVWGQGTTVTVSSGGSSGQVTLRESGPALVKPTQTLTLTCTFSGFSLSTRGVCVSWIRQPPGKALEWLAFIDWDDDKYYNTSLKTRLTISKDTSKNQVVLTMTNVHPVDTATYYCARISSHHGSSWCTTFDYWGQGALVTVSAASGGSGDKTHTCPPCPAPELLGGPSVFLFPPKPKDTLMISRTPEVTCVVVDVSHEDPEVKFNWYVDGVEVHNAKTKPREEQYNSYVVSVLTVLHQDWLNGKEYKCKVSNKALPAPIEKTISKAKGQPREPQVCTLPPSRDELTKNQVSLSCAVKGFYPSDIAVEWESNGQPENNYKTTPPVLDSDGSFFLVSKLTVDKSRWQQGNVFSCSVLHEALHSHYTQKSLSLSPG
Consider B4, for which the IC50 (pseudovirus neutralization) is 1.3 nM in assay [1], 16.2 nM in assay [2] and 0.12 nM in assay [3]. Besides, the figures for the IC80 (pseudovirus neutralization) in assay [1], in assay [2] and in assay [3] were 3.32 nM, 28.2 nM and 3.41 nM, respectively.
